Anti-infective test results gathered from many reports (values: NIAID ChemDB through PubChem).

All rows: whole-cell or culture tests; agent: Aspergillus niger; measure: inhibition

An empty or dashed field is not shown. Inhibition is in % at the dose shown (toxicity tests: loss of growth or viability). Conditions beyond the fields shown may differ between rows.

CC(=O)/C=C(\O)c1coc2cc(O)c(O)c(C(=O)O)c2c1=O ; method: absorbance ; tested at: 200 µg/mL ; result: 0%
COc1ccc(-[n+]2noc([O-])c2C(=O)CSc2nc3ccccc3[nH]2)cc1 ; method: agar diffusion ; tested at: 20 µg/mL ; result: 0%
CSc1ccc(C2CC(c3ccccc3Cl)=NN2c2ccccc2)cc1 ; strain or isolate: NCIM 596 ; method: broth dilution ; tested at: 2000 µg/mL ; result: 98.33%
COC(C)/C=C/c1coc2cc(O)c(O)cc2c1=O ; method: absorbance ; tested at: 200 µg/mL ; result: 0%
C=CC(C/C(=N/OS(=O)(=O)O)SC1OC(CO)C(O)C(O)C1O)OC(=O)CC1(O)C(=O)Nc2ccccc21 ; strain or isolate: ATCC 1015 ; tested at: 400 µg/mL ; result: 75%
CSc1ccc(C2CC(c3ccc(C)cc3)=NN2c2ccccc2)cc1 ; strain or isolate: NCIM 596 ; method: broth dilution ; tested at: 2000 µg/mL ; result: 92.98%
C/C(=N\NC(=S)Nc1cccc(Cl)c1)c1c(O)ccc2c(C)cc(=O)oc12 ; method: agar diffusion / agar ; tested at: 50 µg/mL ; result: 74.49%
COc1ccc(C2=NN(c3ccccc3)C(c3ccc(SC)cc3)C2)cc1 ; strain or isolate: NCIM 596 ; method: broth dilution ; tested at: 2000 µg/mL ; result: 81.09%
Cc1cc(C=Nc2ccc(N=Cc3cc(C)cc(/C=N/Nc4nc5ccccc5s4)c3O)cc2)c(O)c(/C=C/Nc2nc3ccccc3s2)c1 ; method: turbidity ; tested at: 50 µg/mL ; result: 39.62%
Cc1ccccc1-[n+]1noc([O-])c1C(=O)CSc1nc2ccccc2[nH]1 ; method: agar diffusion ; tested at: 20 µg/mL ; result: 0%
CSc1ccc(C2CC(c3cccc(Br)c3)=NN2c2ccccc2)cc1 ; strain or isolate: NCIM 596 ; method: broth dilution ; tested at: 2000 µg/mL ; result: 64.62%
Cc1ccc(C)c(-[n+]2noc([O-])c2C(=O)CSc2nc3ccccc3[nH]2)c1 ; method: agar diffusion ; tested at: 20 µg/mL ; result: 0%
C=CC(C/C(=N/OS(=O)(=O)O)SC1OC(CO)C(O)C(O)C1O)OC(=O)CC1C(=O)Nc2ccccc21 ; strain or isolate: ATCC 1015 ; tested at: 400 µg/mL ; result: 68.8%
CSc1ccc(C2CC(c3ccc(F)cc3)=NN2c2ccccc2)cc1 ; strain or isolate: NCIM 596 ; method: broth dilution ; tested at: 2000 µg/mL ; result: 97.28%
Cc1ccc(-[n+]2noc([O-])c2C(=O)CSc2nc3ccccc3[nH]2)cc1 ; method: agar diffusion ; tested at: 20 µg/mL ; result: 0%
O=C1C(O)C(CO)OC(Oc2c[nH]c3ccccc23)C1O ; strain or isolate: ATCC 1015 ; tested at: 400 µg/mL ; result: 40%

Repeating the final 2 entries:

structure	strain or isolate	method	tested at	result
Cc1ccc(-[n+]2noc([O-])c2C(=O)CSc2nc3ccccc3[nH]2)cc1	-	agar diffusion	20 µg/mL	0%
O=C1C(O)C(CO)OC(Oc2c[nH]c3ccccc23)C1O	ATCC 1015	-	400 µg/mL	40%